Patent publication US9125855B2, “Prevention of Salmonella recrudescense” (priority 2011, dated 2015)

System: genes of Salmonella Typhimurium induced intracellularly in PAM
Test: IVET screening for intracellularly cortisol induced genes of Salmonella Typhimurium
Type: cell-based
[1] = PAM + 1 μM cortisol, positive of 3 independent experiments

For `C[C@]12CCC(=O)C=C1CC[C@@H]1[C@@H]2[C@@H](O)C[C@@]2(C)[C@H]1CC[C@]2(O)C(=O)CO` [cortisol, Cortisol], the “Freq. + 1 μM cortisol: STM0409” value [1] was 1/3, the “Freq. + 1 μM cortisol: STM2314” value [1] was 1/3 and the “Freq. + 1 μM cortisol: cbpA” value [1] was 3/3. The “Freq. + 1 μM cortisol: cmk” value [1] was 2/3, the “Freq. + 1 μM cortisol: gyrB” value [1] was 1/3 and the “Freq. + 1 μM cortisol: lysS” value [1] was 2/3. The “Freq. + 1 μM cortisol: marC” value [1] was 1/3, the “Freq. + 1 μM cortisol: pflC” value [1] was 3/3 and the “Freq. + 1 μM cortisol: pflD” value [1] was 3/3. The “Freq. + 1 μM cortisol: prfC” value [1] was 1/3, the “Freq. + 1 μM cortisol: proP” value [1] was 1/3 and the “Freq. + 1 μM cortisol: prpE” value [1] was 2/3. For the same compound, the “Freq. + 1 μM cortisol: rnT” value [1] was 1/3, the “Freq. + 1 μM cortisol: tolC” value [1] was 1/3 and the “Freq. + 1 μM cortisol: torA” value [1] was 1/3. The “Freq. + 1 μM cortisol: trpS” value [1] was 1/3, the “Freq. + 1 μM cortisol: yfeC” value [1] was 1/3 and the “Freq. + 1 μM cortisol: yggE” value [1] was 2/3. For the same compound, the “Freq. + 1 μM cortisol: yqjE” value [1] was 1/3, the “Freq. + 1 μM cortisol: yqjg” value [1] was 1/3 and the “% + 1 μM cortisol: STM0409” value (share of tested colonies) was 0.7%. The “% + 1 μM cortisol: STM2314” value (share of tested colonies) was 0.7%, the “% + 1 μM cortisol: STM4067” value (share of tested colonies) was 36.3% and the “% + 1 μM cortisol: entF” value (share of tested colonies) was 0.7%. For the same compound, the “% + 1 μM cortisol: gyrB” value (share of tested colonies) was 0.3%, the “% + 1 μM cortisol: lysS” value (share of tested colonies) was 1.0% and the “% + 1 μM cortisol: marC” value (share of tested colonies) was 0.3%. For the same compound, the “% + 1 μM cortisol: menA” value (share of tested colonies) was 6.0%, the “% + 1 μM cortisol: menG” value (share of tested colonies) was 4.6% and the “% + 1 μM cortisol: prfC” value (share of tested colonies) was 0.3%. The “% + 1 μM cortisol: prpE” value (share of tested colonies) was 0.7%, the “% + 1 μM cortisol: rpoE” value (share of tested colonies) was 0.3% and the “% + 1 μM cortisol: scsA” value (share of tested colonies) was 8.1%. The “% + 1 μM cortisol: tolC” value (share of tested colonies) was 0.7%, the “% + 1 μM cortisol: ycgB” value (share of tested colonies) was 0.3% and the “% + 1 μM cortisol: yfeA” value (share of tested colonies) was 0.3%. The “% + 1 μM cortisol: yfeC” value (share of tested colonies) was 0.3%, the “% + 1 μM cortisol: ygdH” value (share of tested colonies) was 0.7% and the “% + 1 μM cortisol: yjbB” value (share of tested colonies) was 0.3%. For the same compound, the “% + 1 μM cortisol: yqjE” value (share of tested colonies) was 1.0%.
